A mixed list of measured activities; the numbers were collected in NIAID ChemDB.

Common to all: target-level tests; species: Human cytomegalovirus; target: Protease; read-out: IC50

Conditions beyond the fields shown may differ between rows.

SMILES	strain	result
COc1ccc2nc(SCc3c(N)cc(C)c(OC)c3C)[nH]c2c1		54 µM
CC(=O)N1C(=O)[C@H](C)[C@H]2[C@H]1CCN2C(=O)C1CCCN1S(=O)(=O)c1ccc(C)cc1	AD169	14 µM
COC(=O)[C@H](C)Nc1nc2ccc(NC(=O)c3ccno3)c(C)c2c(=O)o1		0.83 µM
COc1ccc2nc(S(=O)(=O)Cc3c(N)cc(C)c(OC)c3C)[nH]c2c1		>100 µM
COC(=O)[C@H](Cc1ccc(I)cc1)Nc1nc2ccc(NC(=O)OC(C)(C)C)c(C)c2c(=O)o1		0.27 µM
CNC(=O)N1CCC1=O		>500 µM
O=C1C[C@H](CSc2ncccn2)N1C(=O)N1CCC[C@H]1c1ccccc1		38 µM
Cc1ccc(C)c(CS(=O)c2nc3ccccc3[nH]2)c1N		11 µM
Cn1nnc(C[C@H]2CC(=O)N2C(=O)NCc2ccc([N+](=O)[O-])cc2)n1		2.7 µM
CC[C@@H](NC(=O)N1C(=O)C[C@@H]1CSc1nc2ncccc2s1)c1ccccc1		2.8 µM
O=C1C[C@H](Cc2nccs2)N1C(=O)NCc1ccc([N+](=O)[O-])cc1		2.5 µM
CC(C)c1ccc(NC(=O)N2CCC[C@H]2C(=O)N2CC[C@H]3[C@H]2[C@H](C)C(=O)N3C(=O)C2C(C)(C)C2(C)C)cc1	AD169	16 µM
CC[C@H](NC(=O)N1C(=O)C[C@@H]1CSc1ncccn1)c1ccccc1		17 µM
CC(=O)O[C@@H]1CC(=O)N1		>500 µM
COC(=O)[C@H](Cc1ccccc1)Nc1nc2ccc(NC(=O)C3CCC3)c(C)c2c(=O)o1		0.57 µM
O=C1C[C@H](Cc2ccccn2)N1C(=O)NCc1ccc(C(F)(F)F)cc1		63 µM
CC[C@@H](NC(=O)N1C(=O)C[C@@H]1CSc1nccn1C)c1ccccc1		3.7 µM
Cc1c(NC(=O)OC(C)(C)C)ccc2nc(N[C@@H](C)C(=O)OCc3ccccc3)oc(=O)c12		4.7 µM
O=C1C[C@H](Cc2nc3ccccc3[nH]2)N1C(=O)NCc1ccc(C(F)(F)F)cc1		>50 µM
Cc1cccc2nc(NC3(C(=O)OC(C)(C)C)CC3)oc(=O)c12		2.9 µM
CC(C)c1ccc(NC(=O)N2CCC[C@H]2C(=O)N2CC[C@H]3[C@H]2[C@H](C)C(=O)N3C(=O)c2nccs2)cc1	AD169	>24 µM

Repeating the final 2 entries:

SMILES	strain	result
Cc1cccc2nc(NC3(C(=O)OC(C)(C)C)CC3)oc(=O)c12		2.9 µM
CC(C)c1ccc(NC(=O)N2CCC[C@H]2C(=O)N2CC[C@H]3[C@H]2[C@H](C)C(=O)N3C(=O)c2nccs2)cc1	AD169	>24 µM

ICn: concentration for n% inhibition. Blank or dashed fields: not listed here.